Percent effect of library compounds

Mtb glucose medium: 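Growth of Mycobacterium tuberculosis over 3 days (7H9 medium with glucose and tyloxapol); the read-out is not stated. Tested at 50 µM. Direction is inferred from retests: higher values go with more growth inhibition. Size under these conditions: about 69,000 compounds, about 760 of them at 50% or above in at least one test.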
Mtb cholesterol medium: 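Phenotypic screen: M. tuberculosis growth, cholesterol and DPPC medium, 4 days; the read-out is not stated. Concentration: 50 µM. Direction is inferred from retests: higher values go with more growth inhibition. About 69,000 compounds were tested under these conditions; 0.54% (about 370) showed 50% or more at least once.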

The filed quantity is “Percent Effect” (%).
How 0% and 100% were set is not recorded. Most values in the screen are low, and negative values occur.
Many other results are left out here, so strong results are more common than in the screen.
Two or more numbers in one place are separate tests of the same structure; such repeats can differ widely.
A dash means the value is not listed here; it may have been measured.

- CCC1CN(C(=O)c2cc(CN(C)CCc3ccccc3)on2)CCO1 (centres undefined) : Mtb glucose medium: -3.761%; Mtb cholesterol medium: -6.487%
- Cc1ccn(-c2ccccc2NCc2cccnc2C)n1 : Mtb glucose medium: 25.47% & 29.05%
- CCc1ccccc1CNC(=O)NCc1cnn(C)c1 : Mtb glucose medium: 5.681% & 21.28%; Mtb cholesterol medium: -28.61%
- CN(C)CCNc1ccc(-c2nc(COc3ccccc3)no2)cn1 : Mtb glucose medium: 29.55%; Mtb cholesterol medium: 22.01%
- COc1cccc(Nc2nc(C3CCNCC3)c3ccccn23)c1.Cl : Mtb glucose medium: 14.24%
- CN(Cc1cccc(-n2cccn2)c1)C(=O)c1cccc(N(C)C)c1 : Mtb glucose medium: -20.58%; Mtb cholesterol medium: 0.8951%
- Cc1ccc(CNC(=O)CN2CCN(CCO)CC2)s1 : Mtb glucose medium: 29.08%
- CC(C)C(C)(O)CNc1cccc(F)c1C#N (centres undefined) : Mtb cholesterol medium: 1.862%
- O=C(NCC(F)(F)F)C1CN(C(=O)c2cnccn2)C1 : Mtb glucose medium: -1.613% & 68.13%
- Cc1cc(C)nc(N2CCC(c3ccnc(N(C)C)n3)CC2)n1 : Mtb glucose medium: 3.847%
- O=C(CCC(=O)N1CCC(Oc2ncccc2Br)CC1)c1ccccc1 : Mtb glucose medium: 69.44%; Mtb cholesterol medium: 58.14%
- CC(NC(=O)Cn1cccnc1=O)c1ccc(OC(F)(F)F)cc1 (centres undefined) : Mtb cholesterol medium: 2.139% & -30.83%
- Cc1nc(-c2cccc(C(=O)O)c2)cc(C2CCN(C(C)C)C2)n1 (centres undefined) : Mtb glucose medium: 71.78%
- COCCc1noc(C2CCN(S(=O)(=O)c3cccs3)CC2)n1 : Mtb glucose medium: -25.89%; Mtb cholesterol medium: -28.4%
- CN(C)C(=O)CN1CCCC1c1cccc(Cc2ccccc2F)n1 (centres undefined) : Mtb glucose medium: 45.54%
- N#Cc1nccnc1N1CCC(Cc2ccccc2)C1 (centres undefined) : Mtb cholesterol medium: 23.05%
- Cc1ccccc1-n1c(O)cc(C)c(C#N)c1=O : Mtb glucose medium: -23.85%; Mtb cholesterol medium: -3.188%
- Cc1cc(C)nc(NCCSc2cnn[nH]2)n1 : Mtb glucose medium: 38%
- CCc1nc(CN(C)CC(N)=O)cs1 : Mtb glucose medium: -28.7%; Mtb cholesterol medium: 2.248%
- COc1ccc(OC)c(CNCc2c(C(C)C)nn(C)c2N(C)C)c1 : Mtb glucose medium: 12.92%; Mtb cholesterol medium: 2.12%
- CCOC(=O)C1CCN(C(=O)Cn2ccc3cc(Br)ccc32)CC1 : Mtb cholesterol medium: -13.18%
- COCCCNC(=O)Nc1ccc(OCc2noc(C3CC3)n2)cc1 : Mtb glucose medium: -17.19% & 2.74%
- Cc1cccc(CN2C[C@@H](CN3CCCN(C)CC3)C[C@H](CO)C2)n1 : Mtb cholesterol medium: 73.32%
- CCCc1cc(C(=O)NCCCC(=O)N2Cc3ccccc3C2)[nH]n1 : Mtb glucose medium: 70.96%
- Cc1ccc(CN2CCc3nc(C(C)C)nc(O)c3CC2)s1 : Mtb cholesterol medium: -30.4%
- CC(=O)N1CCN(C(=O)CN2CCN(c3cccc(C)c3)CC2)CC1 : Mtb glucose medium: -2.401%
- O=C(Cc1ccc2c(c1)OCCO2)N1CCCC(n2ccnc2)C1 (centres undefined) : Mtb cholesterol medium: 76.43%
- CC(Nc1nc(-c2ccncc2)nc2c1CCNC2)c1ccccc1 (centres undefined) : Mtb glucose medium: 41.66%
- O=C(Nc1cc[nH]n1)c1ccc(COCC(F)(F)F)cc1 : Mtb glucose medium: 42.66%; Mtb cholesterol medium: -3.729%
- Cc1cc(-c2c[nH]nc2C2CCCCN2C(=O)c2ccccc2)on1 (centres undefined) : Mtb cholesterol medium: 0.6259%
- COC1CCCN(c2nc(C)nc3c2CCN(Cc2ccco2)CC3)C1 (centres undefined) : Mtb glucose medium: 3.804% & -9.029%; Mtb cholesterol medium: -7.134%
- COc1ccc(CCCC(=O)N2C[C@H](C3CC3)[C@@H](N(C)C)C2)cc1 : Mtb glucose medium: -6.742%
- COc1cccc(C(CO)NC(=O)NC(C)C)c1 (centres undefined) : Mtb cholesterol medium: 2.96% & 16.7%
- Clc1ccc(NCc2nnc(C3CC3)o2)cc1Cl : Mtb glucose medium: 47.69%; Mtb cholesterol medium: 45.16%
- O=C(NCc1ccco1)c1cccc(C(=O)NCc2ccco2)n1 : Mtb glucose medium: 13.71%; Mtb cholesterol medium: -14.27%
- CCc1ccc(-c2cc(C(F)(F)F)nc(N3CCC(N)CC3)n2)cc1 : Mtb glucose medium: 109.5% & 104.1%; Mtb cholesterol medium: 112.8%
- c1ccc(-c2nc3c(c(NCCCn4cncn4)n2)CCNCC3)nc1 : Mtb glucose medium: -19.32%
- Cc1nc(CN(C)C)cc(N2CCCC(COc3ccc(F)cc3)C2)n1 (centres undefined) : Mtb glucose medium: 36.91%; Mtb cholesterol medium: 10.96%
- CCc1cccc2cc(CN)c(=O)[nH]c12 : Mtb glucose medium: -10.97%; Mtb cholesterol medium: 2.547% & -14.09%
- COc1ccc(CN(C(=O)C2CCOCC2)c2ccncc2)cc1 : Mtb glucose medium: 9.496% & 7.038%; Mtb cholesterol medium: -2.895%
- Cc1c(C(=O)NC2CCCC2)nnn1-c1ccccc1 : Mtb glucose medium: 12.39% & 8.709%; Mtb cholesterol medium: 6.839%
- Cc1cc(CN2CCN(C(=O)NC(C)c3cccnc3)CC2)on1 (centres undefined) : Mtb glucose medium: 13.81%
- CC(=O)c1ccc(Nc2nc(N)nc3c2nc(C)n3C)cc1 : Mtb glucose medium: -23.21%; Mtb cholesterol medium: -15.75%
- COc1cc(NC(=O)NCc2nccn2C)ccc1Br : Mtb glucose medium: 1.961%
- COCCCC1CCCCN1S(=O)(=O)c1cccc(C#N)c1 (centres undefined) : Mtb glucose medium: -18.7%
- Cc1cc(C)nc(NC(=O)C(C)Oc2ccc3c(c2)OCO3)n1 (centres undefined) : Mtb glucose medium: -4.393%; Mtb cholesterol medium: -3.171%
- Cc1ccc(CNC(=O)Nc2nccs2)cn1 : Mtb glucose medium: 2.206%

Some entries from above, unchanged:

compound	Mtb glucose medium	Mtb cholesterol medium
Cc1cc(CN2CCN(C(=O)NC(C)c3cccnc3)CC2)on1 (centres undefined)	13.81	-
COCCc1noc(C2CCN(S(=O)(=O)c3cccs3)CC2)n1	-25.89	-28.4
N#Cc1nccnc1N1CCC(Cc2ccccc2)C1 (centres undefined)	-	23.05
Cc1ccccc1-n1c(O)cc(C)c(C#N)c1=O	-23.85	-3.188
CCc1nc(CN(C)CC(N)=O)cs1	-28.7	2.248

Data taken from ChEMBL document CHEMBL3988442, “University of Dundee, Small-Polar-MMV Screening Library” (2021).